Assay results from ChEMBL document CHEMBL4390646, “A fragment-based approach towards the discovery of N-substituted tropinones as inhibitors of Mycobacterium tuberculosis transcriptional regulator EthR2” (Eur J Med Chem, 2019).

System: Mycobacterium tuberculosis
Experiment: Binding affinity to recombinant Mycobacterium tuberculosis EthR2 assessed as change in melting temperature at 20 uM by SYPRO Orange dye based fluorescence thermal shift assay

O=C1CCN(CCc2ccc(Cl)cc2)CC1
ΔTm: 0.3 °C
